The series deals with ΔCaf1 (Caf1 mutant with a six amino acid deletion close to the N-terminus), Yersinia pestis, P26948 22-170. The series can be described thus: IEF of periplasmic extracts of E. coli DH5α/pΔFM1.

For the substance “ΔCaf1 (Caf1 mutant with a six amino acid deletion close to the N-terminus)”, the result is listed as “no binding”.

The values are drawn from US7544773.
